Results taken from US8889153B2, “Combination of immunomodulator and anti-pathogenic agent” (priority 2008, dated 2014).
Read-outs that look alike come from different tables or passages of the source. Marks after values point to notes of the source that are not given here.

Test system: Punta Toro virus - Adames strain
Type: in vivo, Punta Toro virus (host: C57BL/6 mice)
Conditions: for Hepatic parameters (ALT) ALT ± Standard Deviation / Viral load ± Standard deviation, Liver / Viral load ± Standard deviation, Serum / Percentage of animals with detectable viruses, Liver / Percentage of animals with detectable viruses, Serum: 3rd day of infection; for Percentage of animals with detectable viruses, Liver / Percentage of animals with detectable viruses, Serum: 5 animals; for Parameters of Hepatic Damage (Score) Score ± Standard Deviation: 3rd day; for Number of survivors: 21 days
[1] = Immunomodulator 1 mg/kg single dose i.p. 24 h after infection
[2] = Immunomodulator 10 mg/kg single dose i.p. 24 h after infection
[3] = Immunomodulator 100 mg/kg single dose i.p. 24 h after infection

proteic aggregate of ammonium and magnesium phospholinoleate-palmitoleate anhydride [Immunomodulator]
Hepatic parameters (ALT) ALT ± Standard Deviation [1]: 2892 ± 2170 UI/liter | Viral load ± Standard deviation, Liver [1]: <3.3 ± 1.1 Log10 CCID50/0.1 g of liver | Viral load ± Standard deviation, Serum [1]: 6.3 ± 0.8 Log10 CCID50/ml of serum | Percentage of animals with detectable viruses, Liver [1]: (20) % | Percentage of animals with detectable viruses, Serum [1]: (100) % | Parameters of Hepatic Damage (Score) Score ± Standard Deviation [1]: 3.3 ± 0.4 | Number of survivors [1]: 5/10 | Hepatic parameters (ALT) ALT ± Standard Deviation [2]: 2069 ± 2024 UI/liter | Viral load ± Standard deviation, Liver [2]: <3.3 ± 0.8 Log10 CCID50/0.1 g of liver | Viral load ± Standard deviation, Serum [2]: 5.7 ± 1.0 Log10 CCID50/ml of serum | Percentage of animals with detectable viruses, Liver [2]: (60) % | Percentage of animals with detectable viruses, Serum [2]: (100) % | Parameters of Hepatic Damage (Score) Score ± Standard Deviation [2]: 2.8 ± 0.3 | Number of survivors [2]: 4/10 | Hepatic parameters (ALT) ALT ± Standard Deviation [3]: 2879 ± 1598 UI/liter | Viral load ± Standard deviation, Liver [3]: < 2.8 Log10 CCID50/0.1 g of liver | Viral load ± Standard deviation, Serum [3]: <4.9 ± 1.4 Log10 CCID50/ml of serum | Percentage of animals with detectable viruses, Liver [3]: 0% | Percentage of animals with detectable viruses, Serum [3]: (80) % | Parameters of Hepatic Damage (Score) Score ± Standard Deviation [3]: 3.0 ± 0.4 | Number of survivors [3]: 10/10**
